Results of unrelated studies side by side (data: NIAID ChemDB).

All rows: tests in culture; organism: Mycobacterium tuberculosis

MIC bound: limit read from a one-dose screen. ECn is the concentration giving n% inhibition of infection, replication or growth. MIC50, MIC90 and the like: level of inhibition, or share of isolates inhibited. An empty or dashed field is not shown. Neighbouring rows are from separate reports. Two numbers with a dash give a range or band. Inhibition is in % at the dose shown (toxicity tests: loss of growth or viability).

compound,dose,changes,setting,read by,strain,cells,measure,value
COc1ccccc1-c1cn2cc(Cl)sc2n1,6.25 µg/mL,,,,H37Rv,,inhibition,47%
CC[C@H](/C=C/[C@@H](C)[C@H]1CC[C@H]2[C@@H]3C(=O)C=C4C[C@@H](O)CC[C@]4(C)[C@H]3CC[C@]12C)C(C)C,,,,,H37Rv,,MIC,1 µg/mL
CCCCCc1ccc(-c2cn(CC(O)COc3ccc4c(c3)OC3(CCCCC3)CC4=O)nn2)cc1,,,,agar,H37Rv,,MIC,0.78 µg/mL
COc1ccc(-c2noc(C3=CC4(CCN(CC5CCCO5)CC4)c4ccccc43)n2)cc1,,Isoniazid-resistant,,resazurin,912253,,MIC,0.39 µM
Fc1cc(F)cc(CNCc2c[nH]c3ccccc23)c1,,,,,H37Ra,,MIC,64 µg/mL
Cc1ccc(-c2cn3cc(Cl)sc3n2)cc1,6.25 µg/mL,,,,H37Rv,,inhibition,13%
NC(=O)c1cnccn1,,,,broth dilution / resazurin,H37Rv,,MIC,3.125 µg/mL
CNCCc1c[nH]c2ccccc12,,,,,H37Ra,,MIC,256 µg/mL
Cc1ccc(NNc2cc(=O)[nH]c(=O)[nH]2)cc1Cl,,,,resazurin,H37Rv,,MIC,3.13 µg/mL
Clc1cn2cc(-c3ccc(Cl)c(Cl)c3Cl)nc2s1,6.25 µg/mL,,,,H37Rv,,inhibition,0%
O=C1C(=O)N(CCN2CCN(Cc3ccccc3)CC2)c2ccc(-c3ccccc3)cc21,,,,,H37Ra,,MIC,≤20 µg/mL
COc1ccc(-c2cn(CC(O)COc3ccc4c(c3)OC3(CCN(C(=O)OC(C)(C)C)CC3)CC4=O)nn2)cc1,,,,agar,H37Rv,,MIC,25 µg/mL
COC(=O)C(Cc1ccccc1)NC(=O)C1N2C(=O)C(N)C2SC1(C)C,,,21 d,colony count,Gordon,,EC99,100 µg/mL
Cc1cc(O)c2c(oc3cc(O)c4c(c32)COC4=O)c1C(=O)O,12.5 µg/mL,,,BACTEC,H37Rv,,inhibition,15%
O=C1CC2(CCCCC2)Oc2cc(OCC(O)Cn3cc(-c4ccccc4)nn3)ccc21,,,,agar,H37Rv,,MIC,6.25 µg/mL
Cc1nc2[nH]c(=O)[nH]c2c(=O)[nH]1,,,,BACTEC,H37Rv,,MIC bound,>12.5 µg/mL
CCCCCCCCCCN1C(=O)C(=O)c2cccc(-c3ccccc3)c21,,,,,H37Ra,,MIC,≤20 µg/mL
COc1cc(C2SCC(=O)N2c2nnc(C(F)(F)F)s2)cc(OC)c1OC,,,,BACTEC,H37Rv,,MIC bound,>12.5 µg/mL
Clc1cccc(CNCc2c[nH]c3ccc(Br)cc23)c1,,,,,H37Ra,,MIC,8 µg/mL
COc1ccc2[nH]c3nc(-n4nc(-c5ccccc5)c5ccccc5c4=O)c4ccccc4c3c2c1,,,,broth dilution / resazurin,H37Rv,,MIC,12.5 µg/mL
CN[C@@H]1[C@H](O[C@H]2[C@H](O[C@H]3[C@H](O)[C@@H](O)[C@H](N=C(N)N)[C@@H](O)[C@@H]3N=C(N)N)O[C@@H](C)[C@]2(O)C=O)O[C@@H](CO)[C@H](O)[C@H]1O,,Spiroindene-resistant,,turbidity,TB377,,MIC,1 µM
COc1nc(C(Cl)(Cl)Cl)c(Cl)c(OC)c1Cl,12.5 µg/mL,,,BACTEC,H37Rv,,inhibition,55%
COc1cccc(-c2cn3cc(Cl)sc3n2)c1,6.25 µg/mL,,,,H37Rv,,inhibition,0%
C1=C(c2nc(-c3cccnc3)no2)c2ccccc2C12CCN(CC1CCCO1)CC2,,Drug-resistant,,resazurin,18b+,,MIC,0.78 µM
CC(C)Sc1ncnc2ccccc12,,,,,CNCTC TBC1/47,,MIC,125 µM
CN[C@@H]1[C@H](O[C@H]2[C@H](O[C@H]3[C@H](O)[C@@H](O)[C@H](N=C(N)N)[C@@H](O)[C@@H]3N=C(N)N)O[C@@H](C)[C@]2(O)C=O)O[C@@H](CO)[C@H](O)[C@H]1O,,,,broth dilution / resazurin,H37Rv,,MIC,6.25 µg/mL
O=c1c(O[C@@H]2C[C@H](CO)[C@@H](O)[C@H](O)[C@H]2O)c(-c2ccc(O)c(O)c2)oc2cc(O)cc(O)c12,,,,,H37Rv,,MIC,>128 µg/mL
Cc1c(CN2CCN(C)CC2)cc(-c2ccc(Cl)cc2)n1-c1ccc(Cl)cc1,,,,,19 strains,,MIC,0.7–6.2 µg/mL
Cc1ccc(-c2cnnc(N3CCC(c4ccccc4)C3)n2)o1,,,,,H37Rv,,MIC,54.7 µM
Cc1ccc2[nH]c3nc(-n4nc(-c5ccccc5)c5ccccc5c4=O)c4ccccc4c3c2c1,,,,broth dilution / resazurin,H37Rv,,MIC,6.25 µg/mL
Nc1nc(-c2cccc(S(=O)(=O)F)c2)cs1,6.25 µg/mL,,,BACTEC,H37Rv,,inhibition,1%
Cc1ccn2c(C(=O)OCc3ccccc3)c(C)nc2c1,,Resistant to HREKP,,broth dilution,MDR-TB,,MIC90,<0.01 µg/mL
COCCN1CCN(C(=O)c2nc3cc(C(F)(F)F)c(C)c([N+](=O)[O-])c3s2)CC1,,BTZ-resistant (C387S),,resazurin / absorbance,H37Rv,,MIC80,>32 µg/mL
CC[C@H](/C=C/[C@@H](C)[C@H]1CC[C@H]2[C@@H]3CC=C4C[C@@H](O)CC[C@]4(C)[C@H]3CC[C@]12C)C(C)C,,,,,H37Rv,,MIC,64 µg/mL
COc1ccc2[nH]c3c(c2c1)c1ccccc1c1nnc(C(C)(C)C)n13,,,,broth dilution / resazurin,H37Rv,,MIC,6.25 µg/mL
COc1cc(-c2oc3cc(O)cc(O)c3c(=O)c2O[C@@H]2C[C@H](CO)[C@@H](O)[C@H](O)[C@H]2O)ccc1O,,,,,H37Rv,,MIC,>128 µg/mL
O=Nc1c(-c2ccc(Cl)cc2)nc2sc(Cl)cn12,6.25 µg/mL,,,,H37Rv,,inhibition,6%
Cc1c(C(F)(F)F)cc2nc(C3=N[C@H](C(=O)N4CCCC4)CO3)sc2c1[N+](=O)[O-],,,,resazurin / absorbance,H37Rv,,MIC80,2 µg/mL
Fc1cccc(F)c1CNCc1c[nH]c2ccccc12,,,,,H37Ra,,MIC,128 µg/mL
CCOC(=O)/C=C/c1ccc(OC)cc1,,,,resazurin,BTB09-126,,MIC,485 µM
COc1ccc(C2=NNc3c4ccccc4c4c5cc(Cl)ccc5nc-4n3C2)cc1,,,,broth dilution / resazurin,H37Rv,,MIC,12.5 µg/mL
CCOC(=O)C1NC(=O)C(C(=O)OCC)NC1=O,12.5 µg/mL,,,BACTEC,H37Rv,,inhibition,9%
CCN(CCCCCN1C(=O)C(=O)c2cc(C3CCCCC3)ccc21)Cc1ccccc1,,,,,H37Rv,,MIC,≤20 µg/mL
O=C(N/N=C/CCCCCCCc1cccc(O)c1C(=O)O)c1ccncc1,,,,,H37Rv,,MIC,0.5–10 µg/mL
CCOC(=O)C1C=C1C(C)(C)O,6.25 µg/mL,,,resazurin,H37Rv,,inhibition,-33%
CC[C@H](CC[C@@H](C)[C@H]1CC[C@H]2[C@@H]3CC=C4C[C@@H](O)CC[C@]4(C)[C@H]3CC[C@]12C)C(C)C,,,,,H37Rv,,MIC,32.8 µg/mL
COc1ccccc1/C=c1/[nH]c(=O)/c(=C\c2ccccc2OC)[nH]c1=O,,,,BACTEC,H37Rv,,MIC bound,>12.5 µg/mL
Clc1cccc(Cl)c1CNCc1c[nH]c2ccccc12,,,,,H37Ra,,MIC,64 µg/mL
NC(N)=N[C@H]1[C@H](O)[C@@H](O)[C@H](O[C@@H]2O[C@H](CO)[C@@H](O)[C@H](O)[C@H]2O)[C@@H](N=C(N)N)[C@@H]1O,,,,,666,,MIC,>100 µg/mL
COc1ccc(-c2cn3ccsc3n2)cc1,,,,,H37Rv,,MIC,>6.25 µg/mL
COCCN1CCN(C(=O)c2nc3cc(C(F)(F)F)cc([N+](=O)[O-])c3s2)CC1,,BTZ-resistant (C387G),,resazurin / absorbance,H37Rv,,MIC80,64 µg/mL
CO[C@H]1/C=C/O[C@@]2(C)Oc3c(C)c(O)c4c(O)c(c(/C=N/N5CCN(C)CC5)c(O)c4c3C2=O)NC(=O)/C(C)=C\C=C\[C@H](C)[C@H](O)[C@@H](C)[C@@H](O)[C@@H](C)[C@H](OC(C)=O)[C@@H]1C,,,,,05001 (H37RV),,MIC,3.2 µg/mL
NNC(=O)c1nc2ccccc2[nH]1,12.5 µg/mL,,,BACTEC,H37Rv,,inhibition,99%
O=[N+]([O-])c1cc(C(F)(F)F)cc2nc(C3=NCCO3)sc12,,BTZ-resistant (C387S),,resazurin / absorbance,H37Rv,,MIC80,>32 µg/mL
Nc1ccc(-c2cn3cc(Cl)sc3n2)cc1,6.25 µg/mL,,,,H37Rv,,inhibition,0%
CN[C@@H]1[C@H](O[C@H]2[C@H](O[C@H]3[C@H](O)[C@@H](O)[C@H](N=C(N)N)[C@@H](O)[C@@H]3N=C(N)N)O[C@@H](C)[C@]2(O)C=O)O[C@@H](CO)[C@H](O)[C@H]1O,,,,,05001 (H37RV),,MIC,6.25 µg/mL
Fc1cccc(CNCc2c[nH]c3ccccc23)c1,,,,,H37Ra,,MIC,32 µg/mL
CCOC(=O)c1nc(C)c(C(=O)OCC)nc1C,,,,BACTEC,H37Rv,,MIC,≥12.5 µg/mL
Cc1ccc(-c2cn(CC(O)COc3ccc4c(c3)OC3(CCCCC3)CC4=O)nn2)cc1,,,,agar,H37Rv,,MIC,3.13 µg/mL
Cc1ccc(-c2cn3ccsc3n2)cc1,6.25 µg/mL,,,,H37Rv,,inhibition,0%
CC1(C)CC[C@]2(C(=O)O)CC[C@]3(C)C(=CCC4[C@@]5(C)CC[C@H](O)C(C)(C)C5CC[C@]43C)C2C1,,,,,H37Rv (rifampicin-resistant),,MIC,50 µg/mL
c1ccc(CCSc2ncnc3ccccc23)cc1,,,,,CNCTC TBC1/47,,MIC,63 µM
CC1C(=O)OC2CC[N+]3(C(=O)C(F)(F)F)CC4OC4(COC(=O)C(C)(O)C1(C)O)C23.O=C([O-])C(F)(F)F,,,,BACTEC,H37Rv,,MIC,≥12.5 µg/mL
Fc1cccc(CNCCc2c[nH]c3ccccc23)c1,,,,,H37Ra,,MIC,64 µg/mL
CC(=O)OCCN1CCN(CCCN2c3ccccc3Sc3ccc(C(F)(F)F)cc32)CC1,,,,BACTEC,H37Rv,,MIC,12.5 µg/mL
c1ccc(CNCCc2c[nH]c3ccccc23)cc1,,,,,H37Ra,,MIC,32 µg/mL
C=CC(C)(O)CCC1=C(C)[C@H](OC(C)=O)[C@H](OC(C)=O)C2C(C)(C)CCC[C@]12C,,,,BACTEC,H37Rv,,MIC,>100 µg/mL
COC(=O)c1nc2[nH]n(-c3ccccc3)c(=O)c2c2c1CCCCCCCCCC2,12.5 µg/mL,,,BACTEC,H37Rv,,inhibition,20%
CCCCc1cn(CC(O)COc2ccc3c(c2)OC2(CCCCC2)CC3=O)nn1,,,,agar,H37Rv,,MIC,12.5 µg/mL
c1ccc(-c2nc(-c3nccc4ccccc34)oc2-c2ccccc2)cc1,12.5 µg/mL,,,BACTEC,H37Rv,,inhibition,-38%
CC1COc2c(N3CCN(C)CC3)c(F)cc3c(=O)c(C(=O)O)cn1c23,,,,,100 isolates,,MIC50,1 µg/mL
COc1ccc2nc(N/N=C/c3ccccn3)cc(C)c2c1,,,,,H37Rv,VERO,MIC,6.25 µg/mL
O=C1C(=O)N(CCCCBr)c2c1cccc2-c1ccccc1,,,,,H37Rv,,MIC,≤20 µg/mL
COc1cc2c(cc1O)C(c1cc(O)c(O)c(OC)c1)C(O)(C(=O)O)C(CO)C2O,,,,BACTEC,H37Rv,,MIC bound,>12.8 µg/mL
CC(C)=CCC/C(C)=C/CC1(C)SC(=O)C(C)=C1O,,,,,H37Rv,,MIC50,96 µM
COC(=O)NC(C(C)C)C(C)(CC(O)O[C@H]1C/C=C(\C)[C@@H]2CC[C@@H]3[C@@H](OC4CC(OC5CC(O)C(OC6CC(O)C(OC)C(C)O6)C(C)O5)C(O)C(C)O4)[C@@H](C)C[C@H](C)[C@H]3[C@]2(C)C(O)=C2C(=O)O[C@]3(C[C@@H](C)C(CO)C[C@H]3/C=C/1C)C2=O)[N+](=O)[O-],12.5 µg/mL,,,BACTEC,H37Rv,,inhibition,10%
Cc1onc(-c2ccccc2Cl)c1C(=O)N[C@@H]1C(=O)N2[C@@H]1SC(C)(C)[C@@H]2C(=O)O,5 µg/mL,,21 d,colony count,Gordon,,inhibition,100%
CN(C)c1cccc(F)c1C(=O)NC(=O)Nc1ccc(Cl)cc1,12.5 µg/mL,,,BACTEC,H37Rv,,inhibition,26%
c1ccc(-c2cn3ccsc3n2)cc1,6.25 µg/mL,,,,H37Rv,,inhibition,0%
OC(c1ccccc1)(c1ccc2ccccc2n1)c1cccs1,6.25 µg/mL,,,,H37Rv,,inhibition,9%
CC(C)CSc1ncnc2ccccc12,,,,,CNCTC TBC1/47,,MIC,125 µM

A second listing of 11 rows from above:

compound	dose	changes	setting	read by	strain	cells	measure	value
COc1ccc2nc(N/N=C/c3ccccn3)cc(C)c2c1					H37Rv	VERO	MIC	6.25 µg/mL
CCCCCCCCCCN1C(=O)C(=O)c2cccc(-c3ccccc3)c21					H37Ra		MIC	≤20 µg/mL
Clc1cccc(Cl)c1CNCc1c[nH]c2ccccc12					H37Ra		MIC	64 µg/mL
c1ccc(CCSc2ncnc3ccccc23)cc1					CNCTC TBC1/47		MIC	63 µM
COc1ccc(-c2cn(CC(O)COc3ccc4c(c3)OC3(CCN(C(=O)OC(C)(C)C)CC3)CC4=O)nn2)cc1				agar	H37Rv		MIC	25 µg/mL
COc1ccc(-c2cn3ccsc3n2)cc1					H37Rv		MIC	>6.25 µg/mL
CC1(C)CC[C@]2(C(=O)O)CC[C@]3(C)C(=CCC4[C@@]5(C)CC[C@H](O)C(C)(C)C5CC[C@]43C)C2C1					H37Rv (rifampicin-resistant)		MIC	50 µg/mL
CCOC(=O)/C=C/c1ccc(OC)cc1				resazurin	BTB09-126		MIC	485 µM
COc1cccc(-c2cn3cc(Cl)sc3n2)c1	6.25 µg/mL				H37Rv		inhibition	0%
CCN(CCCCCN1C(=O)C(=O)c2cc(C3CCCCC3)ccc21)Cc1ccccc1					H37Rv		MIC	≤20 µg/mL
Clc1cccc(CNCc2c[nH]c3ccc(Br)cc23)c1					H37Ra		MIC	8 µg/mL